Only a part is listed here, and it is no random draw. Calls of active or inactive are those of the source.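 Rule for the calls: active = inhibition above the mean plus 3 SD of compounds within the control limits, set per campaign (cut at about 38% in these data); inactive = the rest.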
Test: reduced ATP in mature Plasmodium gametocytes – ATP luminescence, HTS, primary screen (AID 743093);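 note: 0% = DMSO wells and 100% = medium only without gametocytes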
Conditions: P. falciparum stage V gametocytes, 24 h, at 10.9 µM, active compounds read high

Structure (SMILES) | inhibition
COc1ccc(CN(CCCl)CCCl)cc1Cl | inactive: 8.38%
CC(C)c1ccc(NC2CCN(C(=O)OC(C)(C)C)CC2)cc1 | inactive: 4.54%
CN1CCN(CCOC(=O)C(O)(c2ccccc2)c2ccccc2)CC1 | inactive: -6.07%
COc1ccc(NC2CCN(C(=O)OC(C)(C)C)CC2)cc1 | inactive: -2.01%
O=C(NCC1(N2CCOCC2)CCCCC1)c1cc(=O)[nH]c2ccccc12 | inactive: 6.96%
O=C(NCC1(N2CCCCC2)CCCCC1)c1cccc([N+](=O)[O-])c1 | inactive: 15.6%
CCN1CCC(Nc2ccc(Cl)cc2)CC1 | inactive: 8.35%
CCOC(=O)N1CCC(Nc2cccc(C)c2)CC1 | inactive: -7.48%
COc1ccc(NC2CCN(CCc3ccccc3)CC2)c(OC)c1 | inactive: -0.68%
CCOC(=O)N1CCC(Nc2ccc(F)cc2)CC1 | inactive: -0.01%
CCOc1ccc(C)cc1CN(CCCl)CCCl | inactive: -8.19%
N#CC1(Nc2ccccc2)CCN(Cc2ccccc2)CC1 | inactive: 9.64%
COc1ccc(C(=O)NCC2(N3CCCCC3)CCCCC2)c(OC)c1OC | inactive: 5.73%
CN1CCC(Nc2ccc(Cl)cc2)CC1 | inactive: -23.7%
COc1cc(OC)cc(C(=O)NCC2(N3CCOCC3)CCCCC2)c1 | inactive: 0.9%
CC(C)(C)OC(=O)N1CCC(Nc2ccccc2)CC1 | inactive: 19.8%
CN1CCC(Nc2ccc(F)c(Cl)c2)CC1 | inactive: -5.9%
CN(C)c1ccc(C(=O)NCC2(N3CCCCC3)CCCCC2)cc1 | inactive: -2.63%
Fc1ccccc1NC1CCN(Cc2ccccc2)CC1 | inactive: 15.9%
CCCN1CCC(Nc2cc(OC)cc(OC)c2)CC1 | inactive: -34.9%
O=C(OC1CN2CCC1CC2)C1c2ccccc2C=Cc2ccccc21 (centres undefined) | inactive: -9.42%
N/C(=N\O)c1c(N)no[n+]1[O-] | inactive: 10.9%
CCOC(=O)N1CCC(Nc2ccc(C)cc2)CC1 | inactive: 14.7%
COc1ccc(C(=O)NCC2(N3CCOCC3)CCCCC2)cc1OC | inactive: 7.98%
